Compound potency records, mixed from different reports. Data source: NIAID ChemDB in PubChem.

All rows: tests in culture

ECn is the concentration giving n% inhibition of infection, replication or growth. An empty or dashed field is not shown. Inhibition is in % at the dose shown (toxicity tests: loss of growth or viability). Two numbers with a dash give a range or band. Fold resistance has wild type as its base. Lines come from different laboratories, so protocols vary.

structure	organism	endpoint	strain	read by	cells	dose	mutations	result
Nc1nc(=O)n([C@@H]2C=C[C@H](CO)O2)cc1F	Hepatitis B virus	inhibition	WILD TYPE	-	HepG2	0.001 µM	-	58%
CC[C@H]1C[C@]1(NC(=O)[C@@H]1C[C@@H]2CN1C(=O)[C@H](C(C)(C)C)NC(=O)OCC(C)(C)CCCCc1cccc3c1CN(C3)C(=O)O2)C(=O)NS(=O)(=O)C1CC1	Hepatitis C virus	EC50	NZL1	antigen	Huh7.5	-	-	4.786 µM
CC(C)OC(=O)CCC1COP(=O)(CO[C@H](C)Cn2cnc3c(N)ncnc32)OC1	Hepatitis B virus	inhibition	Genotype D	PCR	HepaRG	1 µM	-	50–80%
CCC(CCC(C)C1CCC2C3C[C@@H](O)[C@@]4(O)C[C@@H](O)CCC4(C)C3CCC12C)C(C)C	Hepatitis B virus	inhibition	-	antigen	HepG2 2.2.15	50 µg/mL	-	37.6%
Clc1ccc(Cn2c(CN3CCCC3)nc3ccccc32)cc1	Hepatitis C virus	inhibition	1b Con1	luciferase / replicon	Huh7	20 µM	-	72.57%
CC1N=C(c2ccc(OCCOC3CC(C(=O)O)C3)cc2)Nc2c(Cl)cccc21	Hepatitis A virus	EC50	-	ELISA / antigen	HepDES19	-	-	1.03 µM
CCOC(=O)CC1COP(=O)(CO[C@H](C)Cn2cnc3c(NC(=O)C(C)C)ncnc32)OC1	Hepatitis B virus	inhibition	Genotype D	PCR	HepaRG	1 µM	-	≤30%
Nc1ncnc2c1ncn2CCOCP(=O)(O)O	Hepatitis B virus	inhibition	WILD TYPE	-	HepG2	0.5 µM	-	85%
CC(C)OC(=O)[C@H](C)N[P@](=O)(OC[C@H]1O[C@@H](n2ccc(=O)[nH]c2=O)[C@](C)(F)[C@@H]1O)Oc1ccccc1	Hepatitis C virus	inhibition	1b Con1	luciferase / replicon	Huh7	0.12 µM	-	66.8%
CCC[C@H](NC(=O)[C@@H]1[C@H]2CCC[C@H]2CN1C(=O)[C@@H](NC(=O)[C@@H](NC(=O)c1cnccn1)C1CCCCC1)C(C)(C)C)C(=O)C(=O)NC1CC1	Hepatitis C virus	EC50	1b A156T	luciferase	-	-	-	>10 µM
CNC(=O)c1c(-c2ccc(F)cc2)oc2cc(N(CCO)S(C)(=O)=O)c(C3CC3)cc12	Hepatitis C virus	EC50	4a	luciferase	Huh7	-	-	0.0162 µM
COC(=O)N[C@H](C(=O)N1CCC[C@H]1c1ncc(-c2ccc(-c3ccc(-c4cnc([C@@H]5CCCN5C(=O)[C@@H](NC(=O)OC)C(C)C)[nH]4)cc3)cc2)[nH]1)C(C)C	Hepatitis C virus	fold resistance	Con1	luciferase	1C	-	Y93H	44
COc1ccc(Sc2nc(N)nc3c2ncn3CCOCP(=O)(OCC(F)(F)F)OCC(F)(F)F)cc1	Hepatitis B virus	EC50	WILD TYPE	-	Huh7	-	-	0.027 µM
CCOC(=O)CC1COP(=O)(CO[C@H](C)Cn2cnc3c(NC(=O)c4ccccc4)ncnc32)OC1	Hepatitis B virus	inhibition	Genotype D	PCR	PHH	1 µM	-	≤30%
CC(C)(CO)C(=O)SCCOP(=O)(NCc1ccccc1)OC[C@H]1O[C@@H](n2cnc3c(=O)[nH]c(N)nc32)[C@](C)(O)[C@@H]1O	Hepatitis C virus	fold resistance	GT1b	replicon	Replicon cells	-	Y93H	0.75
CC(=O)Nc1ccc(-c2ccc(Cl)cc2)c(COc2ccc(-c3nc4cc(C(=O)O)ccc4n3C3CCCCC3)cc2)c1	Hepatitis C virus	EC50	1a	luciferase	Huh7	-	-	1.624 µM
C[C@@]1(O)[C@H](O)[C@@H](CO)O[C@H]1c1c[nH]c2c(N)ncnc12	Hepatitis C virus	inhibition	-	MTT	HepG2-T5B	50 µg/mL	-	0%
CCOC(=O)CC1COP(=O)(CO[C@H](C)Cn2cnc3c(NC(C)=O)ncnc32)OC1	Hepatitis B virus	inhibition	Genotype D	PCR	PHH	1 µM	-	≤30%
COC(=O)N[C@H](C(=O)N1CCC[C@H]1c1ncc(-c2ccc(-c3ccc(-c4cnc([C@@H]5CCCN5C(=O)[C@@H](NC(=O)OC)C(C)C)[nH]4)cc3)cc2)[nH]1)C(C)C	Hepatitis C virus	EC50	S52	antigen	Huh7.5	-	-	0.00008 µM
Fc1ccccc1-c1nc2ccn(Cc3ccc(-c4ccc(C(F)(F)F)cc4C(F)(F)F)nn3)cc-2n1	Hepatitis C virus	EC50	2b	luciferase	Huh7	-	-	6.71 µM
CC(C)OC(=O)CC1COP(=O)(CO[C@H](C)Cn2cnc3c(NC(=O)c4ccccc4)ncnc32)OC1	Hepatitis B virus	inhibition	Genotype D	PCR	HepaRG	1 µM	-	≤30%
C[C@@]1(O)[C@H](O)[C@@H](CO)O[C@H]1n1ccc2c(N)ncnc21	Hepatitis C virus	inhibition	-	MTT	HepG2-5B	2 µg/mL	-	0%
COC(=O)CC1COP(=O)(CO[C@H](C)Cn2cnc3c(N)ncnc32)OC1	Hepatitis B virus	inhibition	Genotype D	PCR	HepaRG	1 µM	-	≤30%
CC(C)OC(=O)[C@H](C)N[P@](=O)(OC[C@H]1O[C@@](C#N)(c2ccc3c(N)ncnn23)[C@](C)(O)[C@@H]1OC(=O)C(C)C)Oc1ccccc1	Hepatitis C virus	fold resistance	1b Con1	luciferase	1C	-	R155K	0.93
Nc1nc2c(ncn2CCC(CO)CO)c(=O)[nH]1	Hepatitis B virus	EC50	Mutations L526M M550V	-	HepG2	-	-	370 µM

Again, the opening 2 rows:

| structure | organism | endpoint | strain | read by | cells | dose | mutations | result |
|---|---|---|---|---|---|---|---|---|
| Nc1nc(=O)n([C@@H]2C=C[C@H](CO)O2)cc1F | Hepatitis B virus | inhibition | WILD TYPE | - | HepG2 | 0.001 µM | - | 58% |
| CC[C@H]1C[C@]1(NC(=O)[C@@H]1C[C@@H]2CN1C(=O)[C@H](C(C)(C)C)NC(=O)OCC(C)(C)CCCCc1cccc3c1CN(C3)C(=O)O2)C(=O)NS(=O)(=O)C1CC1 | Hepatitis C virus | EC50 | NZL1 | antigen | Huh7.5 | - | - | 4.786 µM |